A mixed list of measured activities; the numbers were collected in NIAID ChemDB.

Shared fields: cytotoxicity tests; cells: THP-1; measure: CC50

CCn is the concentration with n% toxicity to the cells. Neighbouring rows are from separate reports.

SMILES	result
CCCCSc1n[nH]c(-c2cccc([N+](=O)[O-])c2C)n1	>100 µg/mL
COc1ccc(OC)c2[nH]c(C(=O)O)cc12	0.011 µM
CC1(C)Cc2cccc(O)c2O1	0.01 µM
CC(C)(C)OC(=O)NCCn1ccc2c1C(=O)C=CC2=O	0.081 µM
C#CCSc1n[nH]c(-c2ccc([N+](=O)[O-])c(C)c2)n1	>100 µg/mL
COc1ccc(OC)c2c1ccn2CCNC(=O)OC(C)(C)C	0.11 µM
O=C(Nc1cccc(C(F)(F)F)c1)c1c(O)ccc2ccccc12	>20 µM
CC1(C)CC2=C(O1)C(=O)C=C(Br)C2=O	0.053 µM
COc1ccc(OC)c2c1ccn2CCBr	0.011 µM
COC(=O)c1cc2c(s1)C(=O)C=CC2=O	0.052 µM
C#CCSc1n[nH]c(-c2ccc(C(F)(F)F)cc2)n1	>100 µg/mL
CC1(C)CC2=C(O1)C(=O)c1cc3scnc3cc1C2=O	0.007 µM
C#CCSc1n[nH]c(-c2ccc(Cl)cc2C)n1	>100 µg/mL
CCCCCCCCOC(=O)c1cc([N+](=O)[O-])cc([N+](=O)[O-])c1	>512 µg/mL
CCSc1n[nH]c(-c2cccc(C(F)(F)F)c2)n1	57.4 µg/mL
O=C1c2cc3scnc3cc2C2=NCCn3ccc1c32	0.615 µM

A second listing of 2 rows from above:

| SMILES | result |
|---|---|
| CCCCCCCCOC(=O)c1cc([N+](=O)[O-])cc([N+](=O)[O-])c1 | >512 µg/mL |
| CC1(C)Cc2cccc(O)c2O1 | 0.01 µM |